Experiment [1] concerns the target Ls-AChBP (Lymnaea stagnalis acetylcholine-binding protein) (Lymnaea stagnalis, UniProt P58154). Kind of experiment: Radioligand competition with [125I]-labeled αBgt, Ls-AChBP. The following applies: read-out: IC50 in competition with [125I]-labeled αBgt for Ls-AChBP; 2.4 nM Ls-AChBP; pre-incubated 2.5 h at room temperature, 20 mM Tris–HCl pH 8.0, 1 mg/mL BSA; 0.2 nM [125I]-αBgt for 5 min; two independent experiments. (Displacement assays read how much labelled ligand stays bound in the presence of the test substance.)

Sequences of proteins named here, by UniProt entry; tags and fusion partners are left off. Residues count along the entry.
UniProt P58154, 20-229 limits assumed: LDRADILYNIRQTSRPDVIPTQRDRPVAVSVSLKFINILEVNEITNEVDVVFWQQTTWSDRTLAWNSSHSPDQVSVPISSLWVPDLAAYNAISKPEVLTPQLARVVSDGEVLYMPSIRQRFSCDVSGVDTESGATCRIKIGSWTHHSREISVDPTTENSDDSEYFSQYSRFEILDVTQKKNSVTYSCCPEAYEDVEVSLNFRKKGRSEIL
UniProt P36544, 23-502 limits assumed: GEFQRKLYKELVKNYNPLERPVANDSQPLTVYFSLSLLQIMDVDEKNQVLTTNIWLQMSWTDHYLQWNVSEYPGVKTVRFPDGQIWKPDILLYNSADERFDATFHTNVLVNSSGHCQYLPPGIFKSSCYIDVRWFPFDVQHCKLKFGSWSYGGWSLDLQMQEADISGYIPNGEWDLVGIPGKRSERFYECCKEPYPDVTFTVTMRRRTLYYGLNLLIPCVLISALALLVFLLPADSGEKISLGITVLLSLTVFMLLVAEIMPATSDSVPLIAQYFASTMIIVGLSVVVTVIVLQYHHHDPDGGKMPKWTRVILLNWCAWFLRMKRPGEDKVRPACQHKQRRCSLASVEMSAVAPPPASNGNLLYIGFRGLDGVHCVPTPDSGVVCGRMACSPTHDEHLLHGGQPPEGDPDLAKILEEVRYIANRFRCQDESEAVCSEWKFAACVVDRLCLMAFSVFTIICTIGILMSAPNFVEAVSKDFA
UniProt Q8WSF8, 18-236 limits assumed: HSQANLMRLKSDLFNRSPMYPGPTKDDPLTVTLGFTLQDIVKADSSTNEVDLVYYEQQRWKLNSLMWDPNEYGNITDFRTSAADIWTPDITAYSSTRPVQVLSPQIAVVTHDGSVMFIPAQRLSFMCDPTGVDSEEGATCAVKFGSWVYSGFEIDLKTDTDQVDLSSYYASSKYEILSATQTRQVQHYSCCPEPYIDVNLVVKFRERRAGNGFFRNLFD

A further experiment concerns the target α7 nAChR (Homo sapiens, UniProt P36544). Kind of experiment: Radioligand competition with [125I]-labeled αBgt, α7 nAChR in GH4C1 cells. As to conditions: read-out: IC50 in competition with [125I]-labeled αBgt for α7 nAChR, 0.4 nM toxin-binding sites, pre-incubated 2.5 h at room temperature, pH 8.0, 0.2 nM [125I]-αBgt for 5 min, mean ± s.e.m., two independent experiments.

Experiment [2] addresses Ac-AChBP (Aplysia californica acetylcholine-binding protein) (Aplysia californica, UniProt Q8WSF8). Kind of experiment: Radioligand competition with [125I]-labeled αBgt, Ac-AChBP. The following applies: read-out: IC50 in competition with [125I]-labeled αBgt for Ac-AChBP; 140 nM Ac-AChBP; pre-incubated 2.5 h at room temperature, 20 mM Tris–HCl pH 8.0, 1 mg/mL BSA; 0.2 nM [125I]-αBgt for 5 min; two independent experiments.

pIC50: −log10 of the molar value.

Take `CC(C)C[C@@H]1NC(=O)[C@H](CCCNC(=N)N)NC(=O)[C@@H]2CSSC[C@H](NC(=O)CN)C(=O)N[C@@H](CSSC[C@@H](C(N)=O)NC(=O)[C@H](Cc3ccc(O)cc3)NC(=O)[C@H](CCCNC(=N)N)NC(=O)[C@@H]3CCCN3C(=O)[C@H](CC(N)=O)NC(=O)[C@H](CC(N)=O)NC1=O)C(=O)N[C@@H](CO)C(=O)N[C@@H](CCCNC(=N)N)C(=O)N1CCC[C@H]1C(=O)N1CCC[C@H]1C(=O)N2` [PnIA[R5, R9, L10, R14]]: the figures for the pIC50 (in experiment [1]; at α7 nAChR; in experiment [2]) were 8.91, 6.07 and 7.62, respectively.

As to `CC(C)C[C@@H]1NC(=O)[C@H](CO)NC(=O)[C@@H]2CSSC[C@@H](C(N)=O)NC(=O)[C@H](Cc3ccc(O)cc3)NC(=O)[C@H](CC(=O)O)NC(=O)[C@@H]3CCCN3C(=O)[C@H](CC(N)=O)NC(=O)[C@H](CC(N)=O)NC(=O)[C@H](C)NC(=O)[C@H](CCCNC(=N)N)NC(=O)[C@H](CSSC[C@H](NC(=O)CN)C(=O)N2)NC(=O)[C@@H]2CCCN2C(=O)[C@@H]2CCCN2C1=O` [PnIA[R9]], the negative logarithm of the IC50 (pIC50) is 7.24 in experiment [1], 5.62 at α7 nAChR and 7.39 in experiment [2].

Consider `CC(C)C[C@@H]1NC(=O)[C@H](CCCNC(=N)N)NC(=O)[C@@H]2CSSC[C@H](NC(=O)CN)C(=O)N[C@@H](CSSC[C@@H](C(N)=O)NC(=O)[C@H](Cc3ccc(O)cc3)NC(=O)[C@H](CC(=O)O)NC(=O)[C@@H]3CCCN3C(=O)[C@H](CC(N)=O)NC(=O)[C@H](CC(N)=O)NC1=O)C(=O)N[C@@H](CO)C(=O)N[C@@H](CC(C)C)C(=O)N1CCC[C@H]1C(=O)N1CCC[C@H]1C(=O)N2` [PnIA[R9, L10]], for which the pIC50 in experiment [1] was 7.74; on α7 nAChR, 6.57; in experiment [2], 7.33.

In general, pIC50 refers to the IC50 on a negative log10 scale, so that one unit is a factor of ten.

(Values after publication PMC5107951 (Scientific Reports, 2016).)
